In patent publication US7087375B1, “Method for determining the mechanism of HIV RT inhibitors” (priority 2000, dated 2006):

Assays:
[1] = biological target: HIV-1 RT mutant 41/67/70/215 (Human immunodeficiency virus type 1 group M subtype B, UniProt P04585, D654N/K657R/M628L/T802Y); conditions: 41/67/70/215 RT; ATP […]
[2] = biological target: HIV-1 RT mutant M41L, T69S-SG, L210W, R211K, L214F, T215Y (Human immunodeficiency virus type 1 group M subtype B, UniProt P04585, L797W/L801F/M628L/R798K/T656S/T802Y)
[3] = biological target: HIV-1 RT mutant M41L, T69S-AG, L210W, R211K, L214F, T215Y (Human immunodeficiency virus type 1 group M subtype B, UniProt P04585, L797W/L801F/M628L/R798K/T656S/T802Y)

Cc1cn([C@H]2C[C@H](N=[N+]=[N-])[C@@H](CO[P@](=O)(O)O[P@](=O)(O)OP(=O)(O)O)O2)c(=O)[nH]c1=O
Fold resistance in RT-assay relative to HXB2 [1]: 5.0 (+/−1) fold

Cc1cn([C@H]2C=C[C@@H](COP(=O)(O)OP(=O)(O)OP(=O)(O)O)O2)c(=O)[nH]c1=O
Fold resistance with ATP (RT assay) ([2]; ATP 3.2 mM): 8.1 fold | Ki ([2]; ATP 3.2 mM): 14.7 nM | Ki/Km ([2]; ATP 3.2 mM): 0.08 | Fold resistance (RT assay) ([2]; without ATP): 1.4 fold | Ki ([2]; without ATP): 0.9 nM | Ki/Km ([2]; without ATP): 0.011 | Fold resistance with ATP (RT assay) ([3]; ATP 3.2 mM): 11.7 +/− 1.4 fold | Ki ([3]; ATP 3.2 mM): 27 nM | Ki/Km ([3]; ATP 3.2 mM): 0.117 | Fold resistance (RT assay) ([3]; without ATP): 1.2 +/− 0.3 fold | Ki ([3]; without ATP): 1.3 nM | Ki/Km ([3]; without ATP): 0.01

Where two headings read alike, the source gives them in different places.
